Inhibition data for 54 compounds are collected here from PubChem BioAssay AID1556 (The Scripps Research Institute Molecular Screening Center, 2009).

SMILES strings stand for the structures. The entries are a selection whose mix differs from that of the whole data set. Active and inactive are the calls of the source.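 The calls were made as follows: active = inhibition above the mean plus 3 SD of all compounds in the same screening run (cut at about 4.5% in these data); inactive = the rest.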

The test has as its system metallo-beta-lactamase IMP-1 (Pseudomonas aeruginosa). Put plainly: IMP-1 metallo-beta-lactamase inhibitors, primary screen, biochemical, epi-absorbance readout, Pseudomonas aeruginosa enzyme (AID 1556).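 Also: 0% = IMP-1 with DMSO and 100% = DMSO wells lacking enzyme.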 To be noted: purified IMP-1, nitrocefin hydrolysis, epi-absorbance fluorescence; at 5.6 µM; active compounds read high. In outline:
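System: Purified recombinant IMP-1 metallo-beta-lactamase enzyme | Measured by: Fluorescence quenching readout, ex 480/em 530 nm | Replication: Singlicate | Incubation: 15 min preincubation plus 25 min reaction at 25 °C | Evaluation: Percent inhibition from optical density relative to buffer-blank wells | Benchmarks: DMSO with and without IMP-1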
In general, inhibition refers to the change of the read-out against control, counted positive when it falls. Take `COc1cc(OC)c(C(=O)NCC2(N(C)C)CCCCC2)cc1OC`: the inhibition is inactive: -1.66%. As for `CN(C)c1cccc(C(=O)NCC2(N3CCCCC3)CCCCC2)c1`, the inhibition was inactive: 0.94%. To `COc1ccc(CN(CCCl)CCCl)cc1Cl` belongs inactive: -1.97%. Regarding `CC(C)c1ccc(NC2CCN(C(=O)OC(C)(C)C)CC2)cc1`, the inhibition was inactive: -2.04%.

For the compound `CCCOc1ccc(C(=O)NCC2(N(C)C)CCCCC2)cc1OC`, the inhibition was inactive: -3.94%. Turning to `CN1CCC(Nc2cccc(F)c2)CC1`, the inhibition is inactive: 0.44%. Next, `O=C(NCC1(N2CCCCC2)CCCCC1)c1cccc([N+](=O)[O-])c1`: inactive: -3.86%. On to `N#CC1(Nc2ccccc2)CCN(CCc2ccccc2)CC1`, for which the inhibition was inactive: -2.06%. To `CCN1CCC(Nc2ccc(Cl)cc2)CC1` belongs inactive: -0.39%. Next, `O=C(NCC1(N2CCCCC2)CCCCC1)c1ccc(OC(F)F)cc1`: inactive: -1.05%; `COc1ccc(NC2CCN(C(=O)OC(C)(C)C)CC2)cc1`: inactive: 0.05%. Next, `CN1CCN(CCOC(=O)C(O)(c2ccccc2)c2ccccc2)CC1`: inactive: -2.43%. As for `O=C(NCC1(N2CCOCC2)CCCCC1)c1cc(=O)[nH]c2ccccc12`, the inhibition was inactive: -2.52%. To `COc1cc(C(=O)NCC2(N3CCCCC3)CCCCC2)ccc1OC(F)F` belongs inactive: -4.83%. To `O=C(NCC1(N2CCCCC2)CCCCC1)c1cccc(C(F)(F)F)c1` belongs inactive: -3.27%. For `CCOC(=O)N1CCC(Nc2ccc(F)cc2)CC1`, the inhibition is inactive: -4.15%. To `COc1ccc(NC2CCN(CCc3ccccc3)CC2)c(OC)c1` belongs inactive: -3.77%; to `O=C(NCC1(N2CCCCC2)CCCCC1)c1ccc(F)cc1`, inactive: -1.94%. Next, `CCOc1ccc(C)cc1CN(CCCl)CCCl`: inactive: -3.78%; `Cc1ccc(OCC(C)C)c(CN(CCCl)CCCl)c1`: inactive: -5.84%.

As to `CCOC(=O)N1CCC(Nc2cccc(C)c2)CC1`, the inhibition is inactive: -0.76%. To `COc1cc(C(=O)NCC2(N(C)C)CCCCC2)ccc1OC(F)F` belongs inactive: -2.36%; to `CSc1ccccc1C(=O)NCC1(N2CCCCC2)CCCCC1`, inactive: -2.68%; to `O=C(NCC1(N2CCCCC2)CCCCC1)c1ccc(=O)[nH]c1`, inactive: -3.79%. Next, `CC(C)(C)OC(=O)N1CCC(N(C(=O)c2ccccc2)c2ccc(F)cc2)CC1`: inactive: -3.13%; `COc1ccc(C(=O)NCC2(N3CCCCC3)CCCCC2)c(OC)c1OC`: inactive: -1.58%; `COc1ccc(C(=O)NCC2(N3CCCCC3)CCCCC2)cc1`: inactive: -3.02%. For `CCOC(=O)N1CCC(Nc2ccc(OC)cc2)CC1`, the inhibition was inactive: -4.34%. Next, `N#CC1(Nc2ccccc2)CCN(Cc2ccccc2)CC1`: inactive: -4.1%. In the case of `O=C(OC1CN2CCC1CC2)C1c2ccccc2Oc2ccccc21` (centres undefined), the inhibition is inactive: -1.44%. `O=C(NCC1(N2CCOCC2)CCCCC1)c1cc2ccccc2o1`: the inhibition is inactive: -1.76%. Consider `Cc1cc(C)cc(N(C(=O)c2ccccc2)C2CCN(C(=O)OC(C)(C)C)CC2)c1`, for which the inhibition was inactive: -1.85%.

For `CCCOc1ccc(C(=O)NCC2(N(C)C)CCCCC2)cc1`, the inhibition is inactive: -1.97%. To `O=C(O)C1(Nc2ccccc2)CCN(Cc2ccccc2)CC1` belongs inactive: -1.04%; to `CC(C)(C)OC(=O)N1CCC(Nc2ccccc2)CC1`, inactive: -3.94%. To `CN1CCC(Nc2ccc(F)c(Cl)c2)CC1` belongs inactive: -0.22%; to `CCOc1ncccc1C(=O)NCC1(N2CCOCC2)CCCCC1`, inactive: -2.85%. Next, `CCCOc1ccc(C)cc1CN(CCCl)CCCl`: inactive: -3.85%; `CN1CCC(Nc2ccc(Cl)cc2)CC1`: inactive: -2.36%.

For the compound `CCC(CO)(C(=O)OC1CN2CCC1CC2)c1ccccc1` (centres undefined), the inhibition is inactive: 0.07%. To `COc1cccc(C(=O)N(c2cc(C)cc(C)c2)C2CCN(C(=O)OC(C)(C)C)CC2)c1` belongs inactive: -2.02%; to `COc1cc(OC)cc(C(=O)NCC2(N3CCOCC3)CCCCC2)c1`, inactive: -2.6%; to `COc1cc(OC)cc(C(=O)NCC2(N3CCCCC3)CCCCC2)c1`, inactive: -3.14%. Next, `CN(C)c1ccc(C(=O)NCC2(N3CCCCC3)CCCCC2)cc1`: inactive: -1%. Next, `CCN1CCC(Nc2cccc(F)c2)CC1`: inactive: -2.73%; `CC(C)(C)OC(=O)N1CCC(N(C(=O)c2ccccc2)c2ccc(Cl)cc2)CC1`: inactive: -4.17%; `N#Cc1ccc(C(=O)NCC2(N3CCCCC3)CCCCC2)cc1`: inactive: -2.19%. `CCCN1CCC(Nc2cc(OC)cc(OC)c2)CC1`: the inhibition is inactive: 0.88%. Next, `c1ccc(CN2CCC(Nc3ccccc3)CC2)cc1`: inactive: -3.15%.

As to `CN(C)C1(CNC(=O)c2cccc(C#N)c2)CCCCC1`, the inhibition was inactive: -1.68%.

As for `COc1ccc(C(=O)NCC2(N3CCOCC3)CCCCC2)cc1OC`, the inhibition is inactive: -3.17%. To `O=C(OC1CN2CCC1CC2)C1c2ccccc2C=Cc2ccccc21` (centres undefined) belongs inactive: -0.74%; to `N/C(=N\O)c1c(N)no[n+]1[O-]`, inactive: -5.18%. In the case of `CCOC(=O)N1CCC(Nc2ccc(C)cc2)CC1`, the inhibition is inactive: -3.12%.
